From ChEMBL document CHEMBL1143812, “A novel bis-tetrahydrofuranylurethane-containing nonpeptidic protease inhibitor (PI), GRL-98065, is potent against multiple-PI-resistant human immunodeficiency virus in vitro” (Antimicrob Agents Chemother, 2007)

Tested on: MT2
Experiment: Selectivity index, ratio of CC50 for MT2 cells to EC50 for HIV1 LAI
Format: functional

SMILES: CC(C)CN(C[C@@H](O)[C@H](Cc1ccccc1)NC(=O)O[C@H]1CCOC1)S(=O)(=O)c1ccc(N)cc1
- Ratio CC50/EC50: > 2780
